Test results from PMC8433833, “Heteroleptic Oxidovanadium(V) Complexes with Activity against Infective and Non-Infective Stages of Trypanosoma cruzi” (Molecules, 2021).

Experiments:
[1] = test system: T. cruzi epimastigotes (CL Brener strain); experiment: In vitro activity against epimastigotes of T. cruzi (alamar Blue); format: cell-based, Trypanosoma cruzi; details: selectivity index
[2] = test system: T. cruzi trypomastigotes (CL Brener strain); experiment: In vitro activity against cell-derived trypomastigotes of T. cruzi (alamar Blue); format: cell-based, Trypanosoma cruzi; details: selectivity index

Compound | SI a: IC50 VERO/IC50 T. cruzi epimastigotes [1] | SI b: IC50 VERO/IC50 T. cruzi tripomastigotes [2]
O=C(N/N=C/c1c(O)ccc2ccccc12)c1ccncc1 [IN] | ≤1 | ≤1
Oc1cccc2cccnc12 [L0] | 1.1 | 21.5
Oc1c(Cl)cc(Cl)c2cccnc12 [L1, 5,7-dichloro-8-hydroxyquinolne] | 9.3 | 29.5
Oc1c(I)cc(Cl)c2cccnc12 [L2, 5-chloro-7-iodo-8-hydroxyquinoline] | 23.4 | 162
Oc1c(I)cc(I)c2cccnc12 [L3] | 34.8 | 68.6
O=[N+]([O-])c1ccc(O)c2ncccc12 [L4] | 4.8 | 12.3
CC1CS(=O)(=O)CCN1/N=C/c1ccc([N+](=O)[O-])o1 (centres unmarked) [Nifurtimox] | 271 | 49.6
